Results from PubChem BioAssay AID1903 (Southern Research Specialized Biocontainment Screening …, 2009).
The other results are listed elsewhere or left out. Results with a measured potency or affinity are listed apart. Calls of active or inactive are those of the source. No rule for the calls is given here.

Protein sequences, listed by entry. Tags and fused reporters are not part of them.
UniProt P03070, whole entry: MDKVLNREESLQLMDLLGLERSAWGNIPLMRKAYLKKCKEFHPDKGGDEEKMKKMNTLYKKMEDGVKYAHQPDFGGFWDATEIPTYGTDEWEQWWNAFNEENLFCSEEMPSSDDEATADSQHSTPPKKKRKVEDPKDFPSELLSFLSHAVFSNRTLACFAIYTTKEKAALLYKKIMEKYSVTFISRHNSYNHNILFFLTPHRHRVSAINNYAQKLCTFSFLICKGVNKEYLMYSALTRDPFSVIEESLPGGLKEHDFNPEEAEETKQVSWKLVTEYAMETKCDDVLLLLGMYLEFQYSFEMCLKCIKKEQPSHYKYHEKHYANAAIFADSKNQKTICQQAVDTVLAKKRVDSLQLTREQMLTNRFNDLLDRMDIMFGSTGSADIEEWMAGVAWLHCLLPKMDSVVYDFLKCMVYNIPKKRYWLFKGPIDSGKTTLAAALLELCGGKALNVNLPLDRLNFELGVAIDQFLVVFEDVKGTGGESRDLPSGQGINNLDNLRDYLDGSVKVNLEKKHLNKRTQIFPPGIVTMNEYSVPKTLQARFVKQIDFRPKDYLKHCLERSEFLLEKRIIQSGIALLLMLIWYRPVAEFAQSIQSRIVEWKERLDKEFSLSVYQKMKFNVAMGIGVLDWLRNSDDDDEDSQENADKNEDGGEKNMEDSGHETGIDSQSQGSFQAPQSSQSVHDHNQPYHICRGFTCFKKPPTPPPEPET

Target: Large T antigen (Simian virus 40) (UniProt P03070)
Experiment: SV40 large T antigen inhibitors, biochemical (AID 1903)
Details: SV40 large T antigen ATPase/helicase inhibition assay; at 20 µM; active compounds read high

Row | SMILES | inhibition
1 | CCN1CCC(Nc2cccc(F)c2)CC1 | inactive: 3.3%
2 | CN(C)c1ccc(C(=O)NCC2(N3CCCCC3)CCCCC2)cc1 | inactive: 20.7%
3 | COc1cc(OC)cc(C(=O)NCC2(N3CCCCC3)CCCCC2)c1 | inactive: -1.32%
4 | Fc1ccccc1NC1CCN(Cc2ccccc2)CC1 | inactive: 3.74%
5 | Cc1ccc(C(=O)NCC2(N3CCCCC3)CCCCC2)o1 | inactive: 11.4%
6 | CCC(CO)(C(=O)OC1CN2CCC1CC2)c1ccccc1 (stereo not given) | inactive: 5.59%
7 | COc1cc(OC)cc(C(=O)NCC2(N3CCOCC3)CCCCC2)c1 | inactive: 3.35%
8 | COc1cccc(C(=O)N(c2cc(C)cc(C)c2)C2CCN(C(=O)OC(C)(C)C)CC2)c1 | inactive: 5.16%
9 | CCCOc1ccc(C)cc1CN(CCCl)CCCl | inactive: 1.68%
10 | CN1CCC(Nc2ccc(Cl)cc2)CC1 | inactive: 9.74%
11 | CN1CCC(Nc2ccc(F)c(Cl)c2)CC1 | inactive: 11.3%
12 | CCOc1ncccc1C(=O)NCC1(N2CCOCC2)CCCCC1 | inactive: -2.67%
13 | CCCOc1ccc(C(=O)NCC2(N(C)C)CCCCC2)cc1 | inactive: 4.98%
14 | O=C(O)C1(Nc2ccccc2)CCN(Cc2ccccc2)CC1 | inactive: 3.84%
15 | CC(C)(C)OC(=O)N1CCC(Nc2ccccc2)CC1 | inactive: 11%
16 | N/C(=N\O)c1c(N)no[n+]1[O-] | inactive: 0.26%
17 | CCOC(=O)N1CCC(Nc2ccc(C)cc2)CC1 | inactive: 16.6%
18 | O=C(OC1CN2CCC1CC2)C1c2ccccc2C=Cc2ccccc21 (stereo not given) | inactive: 10.9%
19 | CCc1cc(C(=O)NCC2(N3CCCCC3)CCCCC2)sc1C | inactive: 7.53%
20 | COc1ccc(C(=O)NCC2(N3CCOCC3)CCCCC2)cc1OC | inactive: 1.57%
21 | CCCN1CCC(Nc2cc(OC)cc(OC)c2)CC1 | inactive: 0.82%
22 | c1ccc(CN2CCC(Nc3ccccc3)CC2)cc1 | inactive: -1.91%
23 | CN(C)C1(CNC(=O)c2cccc(C#N)c2)CCCCC1 | inactive: 3.75%
24 | CC(C)(C)OC(=O)N1CCC(N(C(=O)c2ccccc2)c2ccc(Cl)cc2)CC1 | inactive: 5.02%
25 | N#Cc1ccc(C(=O)NCC2(N3CCCCC3)CCCCC2)cc1 | inactive: 6.69%
26 | O=C(NCC1(N2CCCCC2)CCCCC1)c1cccc(C(F)(F)F)c1 | inactive: 7.29%
27 | CN1CCN(CCOC(=O)C(O)(c2ccccc2)c2ccccc2)CC1 | inactive: 12.4%
28 | COc1cc(C(=O)NCC2(N3CCCCC3)CCCCC2)ccc1OC(F)F | inactive: 5.57%

Row | SMILES | inhibition
29 | O=C(NCC1(N2CCOCC2)CCCCC1)c1cc(=O)[nH]c2ccccc12 | inactive: 1.79%
30 | O=C(NCC1(N2CCCCC2)CCCCC1)c1ccc(OC(F)F)cc1 | inactive: 3.8%
31 | O=C(NCC1(N2CCCCC2)CCCCC1)c1cccc([N+](=O)[O-])c1 | inactive: 7.49%
32 | N#CC1(Nc2ccccc2)CCN(CCc2ccccc2)CC1 | inactive: -0.235%
33 | CCN1CCC(Nc2ccc(Cl)cc2)CC1 | inactive: 10.2%
34 | CCCOc1ccc(C(=O)NCC2(N(C)C)CCCCC2)cc1OC | inactive: 19.1%
35 | CN(C)c1cccc(C(=O)NCC2(N3CCCCC3)CCCCC2)c1 | inactive: -3.75%
36 | COc1ccc(CN(CCCl)CCCl)cc1Cl | inactive: 15.7%
37 | CC(C)c1ccc(NC2CCN(C(=O)OC(C)(C)C)CC2)cc1 | inactive: 1.75%
38 | COc1cc(OC)c(C(=O)NCC2(N(C)C)CCCCC2)cc1OC | inactive: 3.56%
39 | O=C(NCC1(N2CCOCC2)CCCCC1)c1cc2ccccc2o1 | inactive: -1.08%
40 | Cc1cc(C)cc(N(C(=O)c2ccccc2)C2CCN(C(=O)OC(C)(C)C)CC2)c1 | inactive: 3.96%
41 | O=C(NCC1(N2CCCCC2)CCCCC1)c1ccc(Cl)nc1 | inactive: 19.4%
42 | O=C(OC1CN2CCC1CC2)C1c2ccccc2Oc2ccccc21 (stereo not given) | inactive: 2.82%
43 | N#CC1(Nc2ccccc2)CCN(Cc2ccccc2)CC1 | inactive: 12%
44 | O=C(NCC1(N2CCCCC2)CCCCC1)c1cccs1 | inactive: 25.7%
45 | O=C(NCC1(N2CCCCC2)CCCCC1)c1ccc(=O)[nH]c1 | inactive: 26.2%
46 | CC(C)(C)OC(=O)N1CCC(N(C(=O)c2ccccc2)c2ccc(F)cc2)CC1 | inactive: 7.09%
47 | COc1ccc(C(=O)NCC2(N3CCCCC3)CCCCC2)c(OC)c1OC | inactive: 23.7%
48 | COc1ccc(C(=O)NCC2(N3CCCCC3)CCCCC2)cc1 | inactive: 8.71%
49 | CSc1ccccc1C(=O)NCC1(N2CCCCC2)CCCCC1 | inactive: 11.3%
50 | Cc1ccc(OCC(C)C)c(CN(CCCl)CCCl)c1 | inactive: 6.76%
51 | COc1cc(C(=O)NCC2(N(C)C)CCCCC2)ccc1OC(F)F | inactive: 1.23%
52 | CCOC(=O)N1CCC(Nc2cccc(C)c2)CC1 | inactive: 9.68%
53 | CCOc1ccc(C)cc1CN(CCCl)CCCl | inactive: -0.225%
54 | CCOC(=O)N1CCC(Nc2ccc(F)cc2)CC1 | inactive: 9.41%
55 | O=C(NCC1(N2CCCCC2)CCCCC1)c1ccc(F)cc1 | inactive: 5.28%
